Compound potency records, mixed from different reports. Data source: NIAID ChemDB in PubChem.

All rows: tests in culture; agent: Candida albicans; read-out: zone

Blank or dashed fields: not listed here. Zones are inhibition diameters on agar. Conditions beyond the fields shown may differ between rows.

structure,method,tested at,strain,value
COc1ccc(-c2oc3ccccc3c(=O)c2O)cc1OC,agar diffusion,100 µg/mL,-,12 mm
COc1ccc(CCn2cnc3ccccc3c2=O)cc1OC,agar diffusion / agar,10 mg/mL,DMBC 005002,13.3 mm
COc1ccc(-c2oc3ccc(Cl)cc3c(=O)c2O)cc1OC,agar diffusion,100 µg/mL,-,18 mm
O=c1c2ccccc2nc(-c2ccc(Cl)cc2)n1Cc1ccccc1,agar diffusion / agar,10 mg/mL,DMBC 005002,26.1 mm
CCOC=C1C(=O)NC(=S)NC1=O,agar diffusion / agar,10000 µg/mL,-,12 mm
CC(C)=CCOc1ccc(C2CC(=O)c3c(O)cc(O)cc3O2)cc1,agar diffusion / agar,100 µg/mL,ATCC 14053,0 mm
COC(=O)[C@H](Cc1ccccc1)NC(=O)CSC1=C(OC)C(=O)c2ccccc2C1=O,agar diffusion,100 µg/well,FRCA,0 mm
COc1cc2oc(=O)ccc2cc1CC(O)C(C)(C)O,agar diffusion,250 µg/disc,-,8 mm
COc1cc(C2c3c(nc(N)c(C#N)c3N)Oc3[nH]c(=S)[nH]c(=O)c32)cc(OC)c1OC,agar diffusion / agar,10000 µg/mL,-,10 mm
COc1cc(-n2cnc3ccccc3c2=O)cc(OC)c1OC,agar diffusion / agar,10 mg/mL,DMBC 005002,11.4 mm
C[C@@H]1[C@H](O)[C@@H](C)/C=C/C=C/CC/C=C/C=C/C=C/C=C/C(O[C@H]2O[C@H](C)[C@@H](O)[C@H](N)[C@@H]2O)CC2O[C@](O)(CC(O)C(O)CCC(O)CC(O)CC(O)CC(=O)O[C@H]1C)CC(O)C2C(=O)O,agar diffusion,100 µg/disc,ATCC 10231,30 mm
OC(Cn1cncn1)(Cn1cncn1)c1ccc(F)cc1F,agar diffusion,100 µg/well,FRCA,0 mm
COc1cc(C2C(C#N)=C(N)Oc3[nH]c(=S)[nH]c(=O)c32)cc(OC)c1OC,agar diffusion / agar,10000 µg/mL,-,10 mm
C[C@@H]1[C@H](O)[C@@H](C)/C=C/C=C/CC/C=C/C=C/C=C/C=C/C(O[C@H]2O[C@H](C)[C@@H](O)[C@H](N)[C@@H]2O)CC2O[C@](O)(CC(O)C(O)CCC(O)CC(O)CC(O)CC(=O)O[C@H]1C)CC(O)C2C(=O)O,agar diffusion,250 µg/mL,MTCC 227,22 mm
C[C@@H]1[C@H](O)[C@@H](C)/C=C/C=C/CC/C=C/C=C/C=C/C=C/C(O[C@H]2O[C@H](C)[C@@H](O)[C@H](N)[C@@H]2O)CC2O[C@](O)(CC(O)C(O)CCC(O)CC(O)CC(O)CC(=O)O[C@H]1C)CC(O)C2C(=O)O,agar diffusion,10 µg/disc,-,25 mm
CC(/C=C/[C@@]1(C)[C@H](C)CCC(=O)[C@@H]1C)=C\Cc1c(O)c(Cl)c(C)c(C=O)c1O,agar diffusion,10 µg/disc,ATCC 64548,10 mm
Cc1ccc(N2NOC(=O)C2S(=O)(=O)Nc2ccc(-n3c(-c4cccc([N+](=O)[O-])c4)nc4ccccc4c3=O)cc2)cc1,agar diffusion,250 µg/mL,MTCC 227,23 mm
CC(=O)Oc1c(-c2ccccc2)oc2ccccc2c1=O,agar diffusion,100 µg/mL,-,15 mm
O=C(N[C@H]([C@H](O)CNCc1cccc(I)c1)C(F)(F)c1ccccc1)OCc1ccccc1,agar diffusion,50 µg/disc,Hongo,0 mm
COc1ccc(-c2oc3ccc(Cl)cc3c(=O)c2OC(C)=O)cc1OC,agar diffusion,100 µg/mL,-,18 mm
O=C(O)c1cn(C2CC2)c2cc(N3CCNCC3)c(F)cc2c1=O,agar diffusion,5 µg,WILD TYPE,6 mm
CN[C@@H]1[C@@H](O)[C@@H](O[C@@H]2[C@@H](O)[C@H](O[C@H]3O[C@H](CN)CC[C@H]3N)[C@@H](N)C[C@H]2N)OC[C@]1(C)O,agar diffusion,100 µg/mL,-,21 mm
C[C@@H]([C@H]1CC[C@H](C)C(=O)C1)[C@H]1CC[C@]2(C)C3=C(CC[C@@]12C)[C@]1(C)CC[C@H](O)C(C)(C)[C@H]1CC3,agar diffusion / agar,0.5 µg/disc,MTCC 183,14 mm
Cc1ccc(N2NOC(=O)C2S(=O)(=O)Nc2nc(-c3ccc(Cl)cc3Cl)cs2)cc1,agar diffusion,250 µg/mL,MTCC 227,18 mm
O=c1c(O)c(-c2ccc(Cl)cc2)oc2ccccc12,agar diffusion,100 µg/mL,-,14 mm
C=CCOc1ccc(C2CC(=O)c3c(O)cc(O)cc3O2)cc1,agar diffusion / agar,100 µg/mL,ATCC 10231,0 mm
Cc1ccc(O)c(/C=N/NC(=O)Nc2nc(-c3ccccc3)cs2)c1,agar diffusion,100 µg/mL,-,14 mm
CC[C@H]1OC(=O)[C@H](C)[C@@H](O[C@H]2C[C@@](C)(OC)[C@@H](O)[C@H](C)O2)[C@H](C)[C@@H](O[C@@H]2O[C@H](C)C[C@H](N(C)C)[C@H]2O)[C@](C)(O)C[C@@H](C)C(=O)[C@H](C)[C@@H](O)[C@]1(C)O,agar diffusion,15 µg,WILD TYPE,6 mm
CC(=O)Oc1c(-c2ccc(Cl)cc2)oc2ccc(Cl)cc2c1=O,agar diffusion,100 µg/mL,-,20 mm
COc1ccc(-n2c(-c3ccc(Cl)cc3)nc3ccccc3c2=O)cc1OC,agar diffusion / agar,10 mg/mL,DMBC 005002,10.3 mm
CCn1cc(C(=O)O)c(=O)c2ccc(C)nc21,agar diffusion,30 µg,ATCC 10231,6 mm
O=C1C=CC(=O)c2c(O)cccc21,agar diffusion,100 µg/well,FRCA,0 mm